The data set relates to coronal proteins on NPs. On the set-up: species or system mouse. The note with it: for V5 Sera_Nanoparticles Quantitative Value (Normalized Total Spectra): HBPE-NPs incubated 1 h with IAV day 5 (V5) mouse sera, 20:1 NP:sera, centrifuged and washed; for V5 Sera Alone (Control) Quantitative Value (Normalized Total Spectra): IAV day 5 (V5) mouse sera alone, no NPs (sera-only control).

B1: Keratin, type II cytoskeletal 2 oral (protein, UniProt Q3UV17 1-594, looked up)
Keratin, type II cytoskeletal …: MSRQACKKSFSCGSQGFSGHSAVVSGSSRSSCVARSGAASGGACGFRSGAGSLGSHSLYSLGGSKSISISVAAGGSRAGGFSGGRSSCGSGFGSGYGGSLGGSRGMGAGFGGPSGFGGAGGFGRPGSFGPGSCPGGIQEVTINQSLLQPLNVEIDPQIGQVKAQEREQIKTLNNKFASFIDKVRFLEQQNKVLETKWELLQQQTIRSGSGPQNLEPFFESYISCLRKQLDSLLGAKGSLEGELKSMQDLVEDFKKKYEEEINRRTAAENEFVGLKKDVDGAFMNKVELQAKVDSLTDEINFLRTLYDMELSQIQSHVSDTSVVLSMDNNRCLDLDSIIAEVKAQYEDIAQKSKAEAEALYQTKLGELQTTAGRHGDDLRSTKSEIMDLNRMIQRLRAEIENVKKQNTNMQTSIAEAEQRGERALKDADTKFQDLQVALQKAKEDMARLLKEYQELMNVKLALDVEIATYRKLLEGEECRLSGEFQNAVSISVVSNVTSTSSSGSFRGTGGSNYGGDSSGRSGGSSSSSSRGSSSRGSSGSRLGSGGSISVSQQRMGFNSGGSQTSVGSSYKSGRGGSSSVQFSQTTSSSQQRSK
As for B1, the “V5 Sera_Nanoparticles Quantitative Value (Normalized Total Spectra)” value is 2.1758 and the “V5 Sera Alone (Control) Quantitative Value (Normalized Total Spectra)” value (shortened to “V5 Sera Alone … (Normalized Total Spectra)”) is listed as 1.8505.

B2: Platelet factor 4 (protein, UniProt Q9Z126 30-105, looked up)
Platelet factor 4: VTSAGPEESDGDLSCVCVKTISSGIHLKHITSLEVIKAGRHCAVPQLIATLKNGRKICLDRQAPLYKKVIKKILES
For B2, the “V5 Sera_Nanoparticles Quantitative Value (Normalized Total Spectra)” value worked out at 2.1758 and the “V5 Sera Alone … (Normalized Total Spectra)” value was found to be 2.7757.

B3: Mannan-binding lectin serine protease 2 (protein, UniProt Q91WP0 20-685, looked up)
Mannan-binding lectin serine …: SKWPEPVFGRLVSPGFPEKYADHQDRSWTLTAPPGYRLRLYFTHFDLELSYRCEYDFVKLSSGTKVLATLCGQESTDTEQAPGNDTFYSLGPSLKVTFHSDYSNEKPFTGFEAFYAAEDVDECRVSLGDSVPCDHYCHNYLGGYYCSCRAGYVLHQNKHTCSALCSGQVFTGRSGYLSSPEYPQPYPKLSSCTYSIRLEDGFSVILDFVESFDVETHPEAQCPYDSLKIQTDKGEHGPFCGKTLPPRIETDSHKVTITFATDESGNHTGWKIHYTSTARPCPDPTAPPNGSISPVQAIYVLKDRFSVFCKTGFELLQGSVPLKSFTAVCQKDGSWDRPMPECSIIDCGPPDDLPNGHVDYITGPEVTTYKAVIQYSCEETFYTMSSNGKYVCEADGFWTSSKGEKLPPVCEPVCGLSTHTIGGRIVGGQPAKPGDFPWQVLLLGQTTAAAGALIHDNWVLTAAHAVYEKRMAASSLNIRMGILKRLSPHYTQAWPEEIFIHEGYTHGAGFDNDIALIKLKNKVTINGSIMPVCLPRKEAASLMRTDFTGTVAGWGLTQKGLLARNLMFVDIPIADHQKCTAVYEKLYPGVRVSANMLCAGLETGGKDSCRGDSGGALVFLDNETQRWFVGGIVSWGSINCGAADQYGVYTKVINYIPWIENIISNF
As to B3, the “V5 Sera_Nanoparticles Quantitative Value (Normalized Total Spectra)” value is recorded as 3.2638 and the “V5 Sera Alone … (Normalized Total Spectra)” value is given as 0.9252.

B4: Platelet-activating factor acetylhydrolase (protein, UniProt Q60963 22-440, looked up)
Platelet-activating factor …: FHWQDTSSFDFRPSVMFHKLQSVMSAAGSGHSKIPKGNGSYPVGCTDLMFGYGNESVFVRLYYPAQDQGRLDTVWIPNKEYFLGLSIFLGTPSIVGNILHLLYGSLTTPASWNSPLRTGEKYPLIVFSHGLGAFRTIYSAIGIGLASNGFIVATVEHRDRSASATYFFEDQVAAKVENRSWLYLRKVKQEESESVRKEQVQQRAIECSRALSAILDIEHGDPKENVLGSAFDMKQLKDAIDETKIALMGHSFGGATVLQALSEDQRFRCGVALDPWMYPVNEELYSRTLQPLLFINSAKFQTPKDIAKMKKFYQPDKERKMITIKGSVHQNFDDFTFVTGKIIGNKLTLKGEIDSRVAIDLTNKASMAFLQKHLGLQKDFDQWDPLVEGDDENLIPGSPFDAVTQVPAQQHSPGSQTQN
For B4, the “V5 Sera_Nanoparticles Quantitative Value (Normalized Total Spectra)” value was 2.1758 and the “V5 Sera Alone … (Normalized Total Spectra)” value worked out at 7.4018.

B5: Serine protease inhibitor A3K (protein, UniProt P07759 22-418, looked up)
Serine protease inhibitor A3K: FPDGTKEMDIVFHEHQDNGTQDDSLTLASVNTDFAFSLYKKLALKNPDTNIVFSPLSISAALALVSLGAKGKTMEEILEGLKFNLTETPEADIHQGFGNLLQSLSQPEDQDQINIGNAMFIEKDLQILAEFHEKTRALYQTEAFTADFQQPTEAKNLINDYVSNQTQGMIKELISELDERTLMVLVNYIYFKGKWKISFDPQDTFESEFYLDEKRSVKVPMMKMKLLTTRHFRDEELSCSVLELKYTGNASALLILPDQGRMQQVEASLQPETLRKWRKTLFPSQIEELNLPKFSIASNYRLEEDVLPEMGIKEVFTEQADLSGITETKKLSVSQVVHKAVLDVAETGTEAAAATGVIGGIRKAILPAVHFNRPFLFVIYHTSAQSILFMAKVNNPK
B5: the “V5 Sera_Nanoparticles Quantitative Value (Normalized Total Spectra)” value worked out at 56.572 and the “V5 Sera Alone … (Normalized Total Spectra)” value is listed as 53.663.

B6: Alpha-1-acid glycoprotein 2 (protein, UniProt P07361 19-207, looked up)
Alpha-1-acid glycoprotein 2: QNPEHVNITIGDPITNETLSWLSDKWFFIGAAVLNPDYRQEIQKTQMVFFNLTPNLINDTMELREYHTIDDHCVYNSTHLGIQRENGTLSKYVGGVKIFADLIVLKMHGAFMLAFDLKDEKKRGLSLNAKRPDITPELREVFQKAVTHVGMDESEIIFVDWKKDRCSQQEKQQLELEKETKKDPEEGQA
With B6, the “V5 Sera_Nanoparticles Quantitative Value (Normalized Total Spectra)” value worked out at 3.2638 and the “V5 Sera Alone … (Normalized Total Spectra)” value is 2.7757.

B7: Corticosteroid-binding globulin (protein, UniProt Q06770 23-397, looked up)
Corticosteroid-binding …: VTDEDSSSHRDLAPTNVDFAFNLYKRLVALNSDKNTLISPVSISMALAMLSLSTRGSTQYLENLGFNMSKMSEAEIHQGFQYLNSLLQQSDTGLEMNMGNVMFLLQNLKLKDSFLADTKHYYESEALTIPSKDWTKAGEQINNHVKNKTQGKIEHVVSDLDSSATLILINYIFLKGIWKLPFSPENTREEDFYVNETSTVKVPMMVQSGNISYFRDSAIPCQMVQMNYVGNGTTFIILPDQGQMDTVVAALNRDTIDRWGKLMIPRQMNLYIPKFSMSDTYDLQDVLADVGIKDLFTNQSDFADTTKDTPLTLTVLHKAMLQLDEGNVLPAATNGPPVHLPSESFTLKYNRPFIFLAFDKYTWSSLMMSQVMNPA
As to B7, the “V5 Sera_Nanoparticles Quantitative Value (Normalized Total Spectra)” value is given as 2.1758 and the “V5 Sera Alone … (Normalized Total Spectra)” value was found to be 1.8505.

B8: Selenoprotein P (protein, UniProt P70274 20-380, looked up)
Selenoprotein P: ESQGQSSACYKAPEWYIGDQNPMLNSEGKVTVVALLQASUYLCLLQASRLEDLRIKLESQGYFNISYIVVNHQGSPSQLKHSHLKKQVSEHIAVYRQEEDGIDVWTLLNGNKDDFLIYDRCGRLVYHLGLPYSFLTFPYVEEAIKIAYCEERCGNCNLTSLEDEDFCKTVTSATANKTAEPSEAHSHHKHHNKHGQEHLGSSKPSENQQPGPSETTLPPSGLHHHHRHRGQHRQGHLESUDTTASEGLHLSLAQRKLURRGCINQLLCKLSKESEAAPSSCCCHCRHLIFEKSGSAIAUQCAENLPSLCSUQGLFAEEKVTESCQCRSPPAAUQNQPMNPMEANPNUSUDNQTRKUKUHSN
Regarding B8, the “V5 Sera_Nanoparticles Quantitative Value (Normalized Total Spectra)” value is reported as 2.1758 and the “V5 Sera Alone … (Normalized Total Spectra)” value came out at 2.7757.

B9: Apolipoprotein C-III (protein, UniProt P33622 21-99, looked up)
Apolipoprotein C-III: EEVEGSLLLGSVQGYMEQASKTVQDALSSVQESDIAVVARGWMDNHFRFLKGYWSKFTDKFTGFWDSNPEDQPTPAIES
As to B9, the “V5 Sera_Nanoparticles Quantitative Value (Normalized Total Spectra)” value came to 2.1758 and the “V5 Sera Alone … (Normalized Total Spectra)” value stood at 30.533.

B10: Coagulation factor XII (protein, UniProt Q80YC5 20-354; Q80YC5 355-597, looked up)
Coagulation factor XIIa heavy …: APPWKDSKKFKDAPDGPTVVLTVDGRLCHFPFQYHRQLHHKCIHKRRPGSRPWCATTPNFDEDQQWGYCLEPKKVKDHCSKHNPCHKGGTCINTPNGPHCLCPEHLTGKHCQKEKCFEPQLLKFFHENELWFRTGPGGVARCECKGSEAHCKPVASQACSINPCLNGGSCLLVEDHPLCRCPTGYTGYFCDLDLWATCYEGRGLSYRGQAGTTQSGAPCQRWTVEATYRNMTEKQALSWGLGHHAFCRNPDNDTRPWCFVWSGDRLSWDYCGLEQCQTPTFAPLVVPESQEESPSQAPSLSHAPNDSTDHQTSLSKTNTMGCGQRFRKGLSSFMR
Coagulation factor XIIa light …: VVGGLVALPGSHPYIAALYWGNNFCAGSLIAPCWVLTAAHCLQNRPAPEELTVVLGQDRHNQSCEWCQTLAVRSYRLHEGFSSITYQHDLALLRLQESKTNSCAILSPHVQPVCLPSGAAPPSETVLCEVAGWGHQFEGAEEYSTFLQEAQVPFIALDRCSNSNVHGDAILPGMLCAGFLEGGTDACQGDSGGPLVCEEGTAEHQLTLRGVISWGSGCGDRNKPGVYTDVANYLAWIQKHIAS
As to B10, the “V5 Sera_Nanoparticles Quantitative Value (Normalized Total Spectra)” value stood at 3.2638 and the “V5 Sera Alone … (Normalized Total Spectra)” value was found to be 2.7757.

B11: Keratin, type II cytoskeletal 73 (protein, UniProt Q6NXH9 1-539, looked up)
Keratin, type II cytoskeletal …: MNRQFTCKPGVANRGFSGCSAVLSGGSSSSYRAAGKGLSGGFSSRSLYSLRSPRSISFNVASSSGRTGGYGFGRNRASGFAGSMFGSGALGPSNPSLCLPGGIHQVTVNKSLLAPLNVELDPEIQKVRAQEREQIKALNNKFASFIDKVRFLEQQNQVLQTKWELLQQLDLSNCRRNLEPVYEAHISSLQKQLDSLSGDRVRLDSELRGMRDAVEDCKKRYEEEINKRTTAENEFVVLKKDVDAAYMSKVELQAKVDALDGEIKFLKCLYEGEITQMQSHISDTSVVLSMDNNRNLDLDSIIAEVRAQYEDIALKSKAEAEMVYQTKFQELQLAAGRHGDDLKHTRNEISELTRLIQRLRSEIESVKKQCSNLETAIADAEQRGDCALKDARAKLDELERALHQAKEELARMLREHQELMSMKLALDIEIATYRKLLEGEECRMSGEHTSAVSISVISSSAPGTVGAGTSFGFSSAGTYGYRQSSVAGGYGILSGGCVTGSGNCSPRGDTKNRLGSASEFKEVSGKTLALGSPSKKTMR
As to B11, the “V5 Sera_Nanoparticles Quantitative Value (Normalized Total Spectra)” value is listed as 2.1758 and the “V5 Sera Alone … (Normalized Total Spectra)” value is on record as 7.4018.
